Measured values published in patent US20120213805A1 (published 2012).

Molecular target: alpha-amanitin-glutarate-huHEA125 conjugate
Test: flow cytometry competition with FITC-labeled antibody on Colo205 cells

B1: epithelial cell adhesion molecule (EpCAM) (other, human, UniProt P16422 24-314, looked up)
chain: QEECVCENYKLAVNCFVNNNRQCQCTSVGAQNTVICSKLAAKCLVMKAEMNGSKLGRRAKPEGALQNNDGLYDPDCDESGLFKAKQCNGTSMCWCVNTAGVRRTDKDTEITCSERVRTYWIIIELKHKAREKPYDSKSLRTALQKEITTRYQLDPKFITSILYENNVITIDLVQNSSQKTQNDVDIADVAYYFEKDVKGESLFHSKKMDLTVNGEQLDLDPGQTLIYYVDEKAPEFSMQGLKAGVIAVIVVVVIAVVAGIVVLVISRKKRMAKYEKAEIKEMGEMHRELNA
notes: whole, on cells; also called CD326; EpCAM antigen
B1: binds.
